In patent publication EP4563146A1 (IRBM S.P.A., priority 2023, dated 2025):

Molecular target: DEN2V NS2B-G4SG4-NS3 serine protease (Dengue virus type 2, UniProt Q91H74)
Test: DEN2V protease inhibition assay
Details: read-out: Dengue 2 - NS3 protease

((3-Cyclopropyl-5-(2-(phenylsulfonyl)-acetamido)phenyl)carbamoyl)(3-((1R,4R)-4-((dimethylamino)methyl)cyclohexyl)-1,2,3-oxadiazol-3-ium-5-yl)amide [Example 150]
IC50: 0.1 to 1 µM
